Results taken from PMC6116672, “Discovery of (phenylureido)piperidinyl benzamides as prospective inhibitors of bacterial autolysin E from Staphylococcus aureus” (Journal of Enzyme Inhibition and Medicinal Chemistry, 2018).

By UniProt entry, the sequences of proteins in these tests, tags left out. Residues count along the entry.
UniProt A0A0H3JT72, 35-258 limits assumed: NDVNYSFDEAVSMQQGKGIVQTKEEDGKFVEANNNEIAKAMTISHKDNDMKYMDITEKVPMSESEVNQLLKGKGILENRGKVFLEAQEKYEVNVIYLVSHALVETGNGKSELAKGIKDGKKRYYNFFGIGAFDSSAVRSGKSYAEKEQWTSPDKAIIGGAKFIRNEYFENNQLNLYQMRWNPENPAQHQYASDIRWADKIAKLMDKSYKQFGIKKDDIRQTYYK

Tests used:
[1] = target: T1, AtlE (Staphylococcus aureus, UniProt A0A0H3JT72); assay: SPR binding affinity to AtlE (steady state 1:1 model); settings: for Kd: SPR, immobilised AtlE, 25 °C, PBS pH 7.4 with 1% or 5% DMSO
Description: SPR experiments were performed using a Biacore T100 (GE Healthcare) equipped with a Series S sensor chip CM5 (GE Healthcare). PBS buffer (67 mM Na2HPO4, 12.5 mM KH2PO4, 70 mM NaCl, 0,05% P20, pH 7.4) was used for immobilisation of the protein. AtlE was produced as previously described[1] and attached to the surface of the chip by amine coupling. The surface of flow cells 1 and 2 was initially activated with a 10-min pulse of a 1:1 mixture of 0.4 M 1-ethyl-3–(3-dimethylaminopropyl)-carbodiimide hydrochloride and 0.1 M N-hydroxysuccinimide, according to manufacturer recommendations. AtlE was diluted into 10 mM sodium acetate buffer, pH 5.8, to a final concentration of 100 µg/mL, and injected twice for 180 s over the second flow cell. Both flow cells were blocked with a 7-min pulse of 1.0 M ethanolamine. The final immobilisation level was about 4100 RU. Screening was run at 25 °C using PBS (67 mM Na2HPO4, 12.5 mM KH2PO4 pH 7.4, 70 mM NaCl, 0.05% P20) supplemented with 1% or 5% DMSO (Merck) as the running buffer. Selected compounds from the virtual screening studies were tested at two different concentrations: 40 and 400 µM. Each compound was injected for 1 min at a flow-rate of 30 µL/min, and the dissociation was monitored for 30 s. Regeneration was not needed, although 30 s of buffer-flow was used to stabilise the surface after each injection. […] Selected compounds were tested at eight different concentrations (depending on their solubility) in three parallel titrations. KD values were determined by fitting of the data to a 1:1 steady state binding model.

[2] = target: T1, AtlE; assay: STD NMR binding measurements; settings: protein/ligand 1:100, protein 1 µM, ligand 0.1 mM, saturation time 2 s, qualitative
Description: The high-resolution NMR spectra were recorded on a Varian DirectDrive 800 MHz spectrometer at 25 °C. All data were collected using pulse sequences and phase-cycling routines provided in Varian libraries of pulse programs. The cryogenic triple-resonance NMR probe was used. NMR samples were prepared in a buffer containing 20 mM Tris-D11, 10% glycerol-D8, and 100 mM NaCl in D2O, pD 7.2. DSS (0.1 mM) was used as an internal standard. All the spectra were recorded at a protein/ligand ratio of 1:100, the protein concentration was 1 µM and the ligand concentration was 0.1 mM. The STD experiments[23] were performed with a 8802.8 Hz spectral width, 16384 data points, a saturation time of 2 s, a relaxation delay of 1.3 s, and 3800 scans. Selective saturation was achieved by a train of 50 ms long Gauss-shaped pulses separated by 1 ms delay. Water was suppressed via excitation sculpting. The on-resonance selective saturation of AtlE was applied at –0.9 ppm, which is well separated from the methyl group of compounds at 1.1 ppm. The off-resonance irradiation was applied at 30 ppm for the reference spectrum. Subtraction of the on and off-resonance spectra was performed internally via phase cycling. Spectra were zero-filled twice and apodised by an exponential line-broadening function of 1 Hz.
Additionally, we tested the binding nature of selected binders with STD NMR spectroscopy. […]

Cc1ccc(NC(=O)NC2CCN(c3ccccc3C(=O)N3CCc4ccccc4C3)CC2)cc1
Kd [1]: 18.2 µM | times lower affinity than 10 ([1]; ratio of SPR Kd relative to compound 10): 10

CCCNC(=O)c1ccccc1N1CCC(NC(=O)Nc2ccc(C)cc2)CC1
Kd [1]: > 1000 µM

CCN1CCN(C(=O)c2ccccc2N2CCC(NC(=O)Nc3ccc(C)cc3)CC2)CC1
Kd [1]: > 1000 µM

CC(C)NC(=O)c1ccccc1N1CCC(NC(=O)Nc2ccccc2)CC1
Kd [1]: > 1000 µM

CCN(Cc1ccccc1)C(=O)c1ccccc1N1CCC(NC(=O)Nc2ccc(C)cc2)CC1
Kd [1]: 38.8 µM

Cc1ccc(NC(=O)NC2CCN(c3ccccc3C(=O)NC3CCCc4ccccc43)CC2)cc1 (stereo not shown)
Kd [1]: 11.7 µM

CCN(CC)C(=O)c1ccccc1N1CCC(NC(=O)Nc2ccccc2)CC1
Kd [1]: > 1000 µM

Cc1ccc(NC(=O)NC2CCN(c3ccccc3C(=O)NCc3ccccc3)CC2)cc1
STD NMR binding to AtlE (STD signals in the aromatic region) [2]: bind to AtlE | Kd [1]: 11.3 µM

O=C(Nc1ccccc1)NC1CCN(c2ccccc2C(=O)NCCc2ccccc2)CC1
Kd [1]: 21.1 µM

Cc1ccc(NC(=O)NC2CCN(c3ccccc3C(=O)NCc3ccc(F)cc3)CC2)cc1
STD NMR binding to AtlE (STD signals in the aromatic region) [2]: bind to AtlE | Kd [1]: 6.1 µM

COc1ccc(CCNC(=O)c2ccccc2N2CCC(NC(=O)Nc3ccc(C)cc3)CC2)cc1
Kd [1]: > 1000 µM

CC1CCN(C(=O)c2ccccc2N2CCC(NC(=O)Nc3ccccc3)CC2)CC1
Kd [1]: > 1000 µM

Cc1ccc(NC(=O)NC2CCN(c3ccccc3C(=O)N(C)C3CCN(C)CC3)CC2)cc1
Kd [1]: > 1000 µM
